PMC6117091, “The C. difficile clnRAB operon initiates adaptations to the host environment in response to LL-37” (PLoS Pathogens, 2018)

Biological target: T1, His-ClnR (Clostridioides difficile 630 (630Δerm)?) (UniProt Q186H1)
T1 sequence: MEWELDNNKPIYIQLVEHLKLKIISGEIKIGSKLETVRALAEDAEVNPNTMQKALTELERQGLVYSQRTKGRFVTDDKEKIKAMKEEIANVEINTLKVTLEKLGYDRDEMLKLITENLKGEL
Experiment: EMSA
Details: 10 mM Tris pH 7.4, 10 mM MgCl2, 100 mM KCl, 7.5% glycerol, 2 mM DTT, 50 ng salmon sperm DNA, 10 ng labeled DNA, 30 min at 37 C; apparent Kd from cooperative …

For “TATATCGATATGATTCCCTTTTGTTATACTTTTATTATAGAGTTTATATTTTATAGTAACAACTTTAAGAAACCGTTTCTATGTCACTTTAGATAATGACATTTGTCATTTTAGTTTTTGTTTAATTTTATTTATGTAGTATTTTGGAG (double strand) [PmtlA]”, the binding was “binds”.
